Here are results for 11 compounds from PMC3578765 (PLoS Neglected Tropical Diseases, 2013).

What all share (conditions): SI = CC50/EC50
Data set [1] relates to DENV4 (DEN4 TVP-360) infection in Huh-7.5. As to the kind of experiment: image-based dengue HT/HCA, 10-pt dose-response hit confirmation, DENV4. The class given is cell-based, Dengue virus. How it is done:
(§1) An immunofluorescence assay (IFA) used to detect dengue infection was optimized for the dengue HT/HCA. Briefly, cells were fixed with 4% (w/v) paraformaldehyde (PFA) for 20 min at room temperature (Rm T). PFA-fixed cells were treated with 0.25% (v/v) Triton-X for 20 min at Rm T. DENV-infected cells were detected by probing with 4G2 mAb prepared in blocking buffer: DPBS containing 5% FBS for 30 min at 37°C, followed by AlexaFluor-conjugated goat anti-mouse IgG (H+L) (Invitrogen Molecular Probes, USA) prepared in blocking buffer for 30 min at 37°C. Cell nuclei counterstained with 5 µg/mL 4′,6-diamidino-2-phenylindole (DAPI, Sigma-Aldrich, USA). Two washing cycles of DPBS was done after each step of the IFA. After the final washing, digital images were acquired using a high-throughput confocal fluorescence imaging system (Evotec Technologies High-Throughput Cell Analyzer Opera, Perkin Elmer, USA). The digital images were taken from 3 different fields of each well at 20× magnification.
(§2) Acquired images were analyzed using our in-house developed image-mining platform (IM). This platform is designed to do high-content screening and directly access the database of images that were sequentially analyzed with specially designed algorithms developed as a customized plug-in to the IM platform. The results of all the analyses were stored in a centralized database. […] One channel (DAPI-channel) captures the signal emitted by DAPI-stained nuclei at 450 nm, while the other channel (A488-channel) captures the signal emitted by the AlexaFluor 488 dye bound to the dengue E protein-antibody complexes confined in the cytoplasm of dengue-infected cells at 540 nm. To define the percentage of dengue-infected cells and, conversely the non-infected cells, a modified watershed method was applied. Compared to the original watershed algorithm that uses the morphological gradient image, a weighted gradient image is used for the topographic surface, whose weights are defined as the ridge values computed from the eigen values of the original image. The percentage of non-infected cells, which is also defined as the percent inhibition or percent activity, is derived by using the formula: [1−(A488-positive cells/total cells)]×100%.
(§3) The BioFocus kinase inhibitor library were screened against DENV1, DEN2, DENV3 and DENV4 at 10 µM in 0.5% (v/v) DMSO. MOCK-infected Huh-7.5 and IFN-α2A (500 U/mL) were used as positive controls, and the 0.5% DMSO vehicle was used as negative control. Four sets of 15 384-well plates (13 plates designated for test compounds and 2 plates designated for DMSO vehicle control) were used for the primary screening of the BioFocus kinase inhibitor library against each dengue serotype. Each of the 4,000 compounds in the library was tested in single wells. For data normalization and quality control of the screening, each test compound plate contained 16 replicates of the positive and negative controls. After dispensing the test compounds IFN-α2A and DMSO vehicle in the 384-well plates, Huh-7.5 was mixed with DENV1, DENV2, DENV3, or DENV4 to achieve a M.O.I. of 0.5 and dispensed at 5×10^3 cells/well using the Thermo Scientific WellMate automated liquid dispenser. For the MOCK-infected Huh-7.5, the cells were mixed with VM and dispensed under the same conditions as previously stated. Virus infection in the presence of the compounds proceeded at 37°C, 5% CO2 for 96 hrs. Compound activity based on percent inhibition and cell toxicity was assessed by IFA and IM analysis as described above. Scatter-plot distribution of the entire screening was generated using TIBCO Spotfire 4.5.0 (TIBCO Software Inc., Somerville, MA).
(§4) The calculated activity was normalized to a percent inhibition (PI) based on the MOCK-infected cells (100% activity, or zero infection) and dengue-infected cells (0% activity, or maximum measured infection percentage) controls according to the formula: [drawing 1] where: PImeasured - percent inhibition of test compound […]

In data set [2] the test system is DENV2 (BR DEN2 01-01) infection in Huh-7.5. In words: image-based dengue HT/HCA, 10-pt dose-response hit confirmation, DENV2. The class given is cell-based, Dengue virus. How it is done:
as §1, §2, §3, §4

Data set [3] relates to DENV1 (Den1 BR/90) infection in Huh-7.5. As to the kind of experiment: image-based dengue HT/HCA, 10-pt dose-response hit confirmation, DENV1. The class given is cell-based. As for the experimental part: as §1, §2, §3, §4
In data set [4] the test system is DENV3 (BR DEN3 290-02) infection in Huh-7.5. In words: image-based dengue HT/HCA, 10-pt dose-response hit confirmation, DENV3. The class given is cell-based, Dengue virus. How it is done:
as §1, §2, §3, §4

For `NC(Cc1ccc(C(F)(F)F)cc1)c1csc(Nc2nccc(NCCCO)n2)n1` (stereo not shown) [CND1172], the “SI DENV4” value in data set [1] is 2.0. In data set [2], the “SI DENV2” value is 1.4. In addition, the “SI DENV1” value in data set [3] was determined as 2.1. Also, the “SI DENV3” value in data set [4] came to 3.1.
For `NC(Cc1ccc(C(F)(F)F)cc1)c1csc(Nc2ncccn2)n1` (stereo not shown) [CND1081] the same measures were 8.3, over 48, over 66 and over 32.
For `COc1cccc(Nc2nc(C(N)CC(C)C)cs2)n1` (stereo not shown) [CND1057] the same measures were 2.3, 23, 7.0 and 7.9.
For `Nc1ccc(CC(N)c2csc(Nc3ncccn3)n2)cc1` (stereo not shown) [CND1243] the same measures were over 14, over 16, over 24 and over 100.
For `COc1ccc(CC(N)c2csc(Nc3nccc(NCc4ccco4)n3)n2)cc1` (stereo not shown) [CND1020], the “SI DENV2” value in data set [2] is 1.9. Moreover, the “SI DENV1” value in data set [3] worked out at 6.4. For the same compound, in data set [4], the “SI DENV3” value is given as 7.3.
As to `CS(=O)(=O)c1cnc(Nc2nc(C(N)Cc3ccc(Cl)cc3)cs2)nc1` (stereo not shown) [CND1244], the “SI DENV4” value in data set [1] is reported as 4.8. The “SI DENV2” value in data set [2] was found to be 7.2. The “SI DENV1” value in data set [3] is reported as 12. Moreover, in data set [4], the “SI DENV3” value was found to be 13.
Turning to `NC(Cc1ccccc1)c1csc(Nc2ccccn2)n1` (stereo not shown) [CND1043], the “SI DENV4” value in data set [1] was 6.2. For the same compound, in data set [2], the “SI DENV2” value was determined as 14. In data set [3], the “SI DENV1” value is reported as 10. Besides, the “SI DENV3” value in data set [4] is recorded as 7.5.
For `NC(c1csc(Nc2ncccn2)n1)c1ccccc1Cl` (stereo not shown) [CND1203] the same measures were over 20, over 24, over 59 and over 43.
`CCCc1cnc(Nc2nc(C(N)Cc3ccccc3)cs2)nc1` (stereo not shown) [CND0975]: in data set [1], the “SI DENV4” value is on record as under 1.0. In data set [2], the “SI DENV2” value is listed as 8. The “SI DENV1” value in data set [3] was 44. The “SI DENV3” value in data set [4] is listed as under 1.0.
Regarding `NC(Cc1ccc(Cl)cc1)c1csc(Nc2ccc(S(N)(=O)=O)cc2)n1` (stereo not shown) [CND0968], the “SI DENV4” value in data set [1] is listed as 26. Besides, the “SI DENV2” value in data set [2] came out at 4.6. Besides, the “SI DENV1” value in data set [3] was under 1.2. The “SI DENV3” value in data set [4] came to 4.7.
Take `COc1ccc(CC(N)c2csc(Nc3ncccn3)n2)cc1` (stereo not shown) [CND1201]: in data set [1], the “SI DENV4” value was over 20. The “SI DENV2” value in data set [2] is over 13. The “SI DENV1” value in data set [3] was over 111. The “SI DENV3” value in data set [4] is on record as over 38.
